Data: US9862749B2, “Analogue peptide CMA3 derived from CM-MA peptide and use thereof” (Industry-Academic Cooperation Foundation, Chosun University, priority 2014, dated 2018)

Tested on: E. coli membrane
Experiment: Confocal microscopy of TAMRA-labelled peptide on E. coli
Format: cell-based
Settings: TAMRA attached to C-terminal; 1/2 the MIC, 37° C., 10 minutes

Compound | location of the peptide on E. coli
CC[C@H](C)[C@H](NC(=O)CNC(=O)[C@@H](NC(=O)[C@H](Cc1c[nH]cn1)NC(=O)[C@H](CCCCN)NC(=O)[C@H](CCCCN)NC(=O)[C@H](CC(C)C)NC(=O)[C@H](CCCCN)NC(=O)[C@H](Cc1c[nH]c2ccccc12)NC(=O)[C@@H](N)CCCCN)[C@@H](C)CC)C(=O)NCC(=O)N[C@@H](CCCCN)C(=O)N[C@@H](Cc1c[nH]cn1)C(=O)N[C@@H](Cc1ccccc1)C(=O)N[C@@H](CC(C)C)C(=O)N[C@@H](CO)C(=O)N[C@@H](C)C(=O)N[C@@H](CCCCN)C(=O)N[C@@H](CCCCN)C(=O)N[C@@H](Cc1ccccc1)C(N)=O [CMA3] (H-KWKLKKHIGIGKHFLSAKKF-NH2; N-terminus assumed) | observed on E. coli membrane
CC[C@H](C)[C@H](NC(=O)CNC(=O)[C@@H](NC(=O)[C@H](CCCCN)NC(=O)[C@H](CCCCN)NC(=O)[C@H](Cc1ccccc1)NC(=O)[C@H](CC(C)C)NC(=O)[C@H](CCCCN)NC(=O)[C@H](Cc1c[nH]c2ccccc12)NC(=O)[C@@H](N)CCCCN)[C@@H](C)CC)C(=O)NCC(=O)N[C@@H](CCCCN)C(=O)N[C@@H](Cc1ccccc1)C(=O)N[C@@H](CC(C)C)C(=O)N[C@@H](Cc1c[nH]cn1)C(=O)N[C@@H](CO)C(=O)N[C@@H](C)C(=O)N[C@@H](CCCCN)C(=O)N[C@@H](CCCCN)C(=O)N[C@@H](Cc1ccccc1)C(N)=O [CA-MA, reference compound] (H-KWKLFKKIGIGKFLHSAKKF-NH2) | observed on E. coli membrane

Peptide text beside a SMILES is read from it.
